Laboratory results as given in US9776963B2, “Small molecule CD4 mimetics and uses thereof” (priority 2008, dated 2017).

Biological target: radiolabeled S375W HIVYU2 gp120 binding to Cf2Th-CCR5 cells (Human immunodeficiency virus type 1 group M subtype B, UniProt P35961, S370W)
Assay type: cell-based

COc1ccnc2[nH]cc(C(=O)C(=O)N3CCN(C(=O)c4ccccc4)C[C@H]3C)c12 [BMS-806]
enhancement of gp120 binding to CCR5+ cells (in words): did not enhance the binding
